Data on two compounds can be found in ChEMBL document CHEMBL1275243 (2010).

The test system of assay [1] is Bacillus anthracis. Kind of assay: Antimicrobial activity against Bacillus anthracis A0193 assessed as change in fluorescence threshold cycle at 0.5 ug/ml after 4 hrs by real-time PCR viability assay relative to control. For orientation: Quantitative PCR measures a nucleic acid by following its amplification.
Assay [2] relates to Bacillus anthracis. Kind of assay: Antimicrobial activity against pXO1-positive and pXO2 negative Bacillus anthracis 34F2 assessed as change in fluorescence threshold cycle at 16 ug/ml after 4 hrs by real-time PCR viability assay relative to control.
Assay [3] deals with Bacillus anthracis. The assay can be described thus: Antimicrobial activity against Bacillus anthracis A0462 assessed as change in fluorescence threshold cycle at 0.015 ug/ml after 4 hrs by real-time PCR viability assay relative to control.
The test system of assay [4] is Bacillus anthracis. The assay can be described thus: Antimicrobial activity against Bacillus anthracis A0488 assessed as change in fluorescence threshold cycle at 0.12 ug/ml after 4 hrs by real-time PCR viability assay relative to control.
Assay [5] concerns Bacillus anthracis. The assay can be described thus: Antimicrobial activity against Bacillus anthracis A0248 assessed as change in fluorescence threshold cycle at 16 ug/ml after 4 hrs by real-time PCR viability assay relative to control.
The subject of assay [6] is Bacillus anthracis. The assay can be described thus: Antimicrobial activity against Bacillus anthracis A0264 assessed as change in fluorescence threshold cycle at 0.25 ug/ml after 4 hrs by real-time PCR viability assay relative to control.
Assay [7] deals with Bacillus anthracis. The assay can be described thus: Antimicrobial activity against Bacillus anthracis A0462 assessed as change in fluorescence threshold cycle at. 03 ug/ml after 4 hrs by real-time PCR viability assay relative to control.
Assay [8] concerns Bacillus anthracis. The assay can be described thus: Antimicrobial activity against Bacillus anthracis A0264 assessed as change in fluorescence threshold cycle at 0.12 ug/ml after 4 hrs by real-time PCR viability assay relative to control.
Assay [9] deals with Bacillus anthracis. Kind of assay: Antimicrobial activity against Bacillus anthracis A0419 assessed as change in fluorescence threshold cycle at 0.015 ug/ml after 4 hrs by real-time PCR viability assay relative to control.
Assay [10] deals with Bacillus anthracis. Kind of assay: Antimicrobial activity against Bacillus anthracis A0193 assessed as change in fluorescence threshold cycle at 0.015 ug/ml after 4 hrs by real-time PCR viability assay relative to control.
The test system of assay [11] is Bacillus anthracis. The assay can be described thus: Antimicrobial activity against Bacillus anthracis A0149 assessed as change in fluorescence threshold cycle at 8 ug/ml after 4 hrs by real-time PCR viability assay relative to control.
Assay [12] deals with Bacillus anthracis. The assay can be described thus: Antimicrobial activity against Bacillus anthracis A0248 assessed as change in fluorescence threshold cycle at 0.015 ug/ml after 4 hrs by real-time PCR viability assay relative to control.
The subject of assay [13] is Bacillus anthracis. The assay can be described thus: Antimicrobial activity against Bacillus anthracis A0264 assessed as change in fluorescence threshold cycle at 0.06 ug/ml after 4 hrs by real-time PCR viability assay relative to control.
The subject of assay [14] is Bacillus anthracis. Kind of assay: Antimicrobial activity against Bacillus anthracis A0264 assessed as change in fluorescence threshold cycle at. 03 ug/ml after 4 hrs by real-time PCR viability assay relative to control.
The subject of assay [15] is Bacillus anthracis. The assay can be described thus: Antimicrobial activity against Bacillus anthracis A0293 assessed as change in fluorescence threshold cycle at 0.015 ug/ml after 4 hrs by real-time PCR viability assay relative to control.
Assay [16] relates to Bacillus anthracis. Kind of assay: Antimicrobial activity against pXO1-positive and pXO2 negative Bacillus anthracis 34F2 assessed as change in fluorescence threshold cycle at 0.25 ug/ml after 4 hrs by real-time PCR viability assay relative to control.
Assay [17] has as its system Bacillus anthracis. Kind of assay: Antimicrobial activity against Bacillus anthracis A0102 assessed as change in fluorescence threshold cycle at. 03 ug/ml after 4 hrs by real-time PCR viability assay relative to control.
Assay [18] deals with Bacillus anthracis. Kind of assay: Antimicrobial activity against Bacillus anthracis A0293 assessed as change in fluorescence threshold cycle at 32 ug/ml after 4 hrs by real-time PCR viability assay relative to control.
For assay [19], the system named is Bacillus anthracis. The assay can be described thus: Antimicrobial activity against Bacillus anthracis A03768 assessed as change in fluorescence threshold cycle at 32 ug/ml after 4 hrs by real-time PCR viability assay relative to control.
Assay [20] concerns Bacillus anthracis. Kind of assay: Antimicrobial activity against Bacillus anthracis A03768 assessed as change in fluorescence threshold cycle at 64 ug/ml after 4 hrs by real-time PCR viability assay relative to control.
The test system of assay [21] is Bacillus anthracis. Kind of assay: Antimicrobial activity against Bacillus anthracis A0149 assessed as change in fluorescence threshold cycle at 32 ug/ml after 4 hrs by real-time PCR viability assay relative to control.
In assay [22] the test system is Bacillus anthracis. Kind of assay: Antimicrobial activity against Bacillus anthracis A0264 assessed as change in fluorescence threshold cycle at 64 ug/ml after 4 hrs by real-time PCR viability assay relative to control.
For assay [23], the system named is Bacillus anthracis. Kind of assay: Antimicrobial activity against Bacillus anthracis A0188 assessed as change in fluorescence threshold cycle at 32 ug/ml after 4 hrs by real-time PCR viability assay relative to control.
The subject of assay [24] is Bacillus anthracis. Kind of assay: Antimicrobial activity against Bacillus anthracis A0462 assessed as change in fluorescence threshold cycle at 64 ug/ml after 4 hrs by real-time PCR viability assay relative to control.
In assay [25] the test system is Bacillus anthracis. The assay can be described thus: Antimicrobial activity against Bacillus anthracis A0193 assessed as change in fluorescence threshold cycle at 64 ug/ml after 4 hrs by real-time PCR viability assay relative to control.
Assay [26] deals with Bacillus anthracis. The assay can be described thus: Antimicrobial activity against pXO1-positive and pXO2 negative Bacillus anthracis 34F2 assessed as change in fluorescence threshold cycle at 64 ug/ml after 4 hrs by real-time PCR viability assay relative to control.
The subject of assay [27] is Bacillus anthracis. Kind of assay: Antimicrobial activity against Bacillus anthracis A0193 assessed as change in fluorescence threshold cycle at 32 ug/ml after 4 hrs by real-time PCR viability assay relative to control.
For assay [28], the system named is Bacillus anthracis. Kind of assay: Antimicrobial activity against Bacillus anthracis A0248 assessed as change in fluorescence threshold cycle at 64 ug/ml after 4 hrs by real-time PCR viability assay relative to control.

Turning to `O=C(O)c1cn(C2CC2)c2cc(N3CCNCC3)c(F)cc2c1=O` [CIPROFLOXACIN], the deltaCT with Bacillus anthracis [1] is 7.27; in the assay on Bacillus anthracis [2] it was 6.86; in the assay with Bacillus anthracis [3], 8.63; with Bacillus anthracis [4] it was 7.76; in the assay on Bacillus anthracis [5], 4.58; in the assay with Bacillus anthracis [6], 7.49. The deltaCT in the assay on Bacillus anthracis [7] was 8.21; with Bacillus anthracis [8] it was 7.29; in the assay on Bacillus anthracis [9], 8.81; in the assay with Bacillus anthracis [10], 2.33; in the assay on Bacillus anthracis [11], 0.44; with Bacillus anthracis [12] it was 8.21. The deltaCT with Bacillus anthracis [13] was 8.9; with Bacillus anthracis [14], 0.7; in the assay with Bacillus anthracis [15], 5.87; with Bacillus anthracis [16] it was 7.89; in the assay on Bacillus anthracis [17], 8.49.

As to `C[C@H]1c2cccc(O)c2C(=O)C2=C(O)[C@]3(O)C(=O)C(C(N)=O)=C(O)[C@@H](N(C)C)[C@@H]3[C@@H](O)[C@@H]21.O` [DOXYCYCLINE], the deltaCT turned out to be 7.7 in the assay with Bacillus anthracis [1]; 0.65 with Bacillus anthracis [2]; 7.74 with Bacillus anthracis [18]; 7.18 with Bacillus anthracis [4]; 0.26 with Bacillus anthracis [5]; 5.08 with Bacillus anthracis [6]. Also, the deltaCT in the assay on Bacillus anthracis [19] is 7.24; with Bacillus anthracis [20] it was 8.22; with Bacillus anthracis [8], 6.95; with Bacillus anthracis [21] it was 8.13; in the assay with Bacillus anthracis [22], 7.21; with Bacillus anthracis [23] it was 6.92. The deltaCT stood at 7.83 in the assay on Bacillus anthracis [24]; 8.35 with Bacillus anthracis [11]; 7.11 with Bacillus anthracis [13]; 7.97 in the assay on Bacillus anthracis [25]; 7.54 in the assay on Bacillus anthracis [26]; 6.28 in the assay with Bacillus anthracis [16]. In addition, the deltaCT in the assay on Bacillus anthracis [27] and with Bacillus anthracis [28] was 7.7 in each case.
